A mixed list of measured activities; the numbers were collected in NIAID ChemDB.

Common to all: whole-cell or culture tests; species: Hepatitis C virus; read-out: inhibition

Inhibition is in % at the dose shown (toxicity tests: loss of growth or viability). Two numbers with a dash give a range or band. An empty or dashed field is not shown. Rows are shuffled and stem from different studies.

structure | strain or isolate | mutations | cell line | read by | conditions | tested at | result
COc1cc(CN2CCC(C(=O)Nc3ccc(-c4cccc(C)c4)cc3)CC2)ccc1O | JFH-1 |  | Huh7 | PCR |  | 15 µM | ≥40%
O=c1nc(NO)ccn1[C@@H]1O[C@H](CO)[C@@H](O)[C@H]1O |  |  | Huh7 replicon |  | 4 d | 5 µM | 90%
C=CCn1cc(CN2CCC(C(=O)Nc3cccc(-c4cccc(Cl)c4)c3)CC2)c(C)n1 | JFH-1 |  | Huh7 | PCR |  | 15 µM | ≥40%
CC1(C)CC[C@@]2(C(=O)NCc3cn(CCn4cc(CNC(=O)[C@]56CCC(C)(C)CC5C5=CCC7[C@@]8(C)CC[C@H](O)C(C)(C)C8CC[C@@]7(C)[C@]5(C)C[C@H]6O)nn4)nn3)C(C1)C1=CCC3[C@@]4(C)CC[C@H](O)C(C)(C)C4CC[C@@]3(C)[C@]1(C)C[C@H]2O |  |  | Huh7 | luciferase / entry |  | 1 µM | 57.1%
CC(=O)c1ccc(NC(=O)C2=c3nc(C)[nH]c(=O)c3=NC2)cc1 | GT2a |  | Huh7.5 | luciferase / reporter gene |  | 50 µM | 0%
COc1cc(C(c2cc(OC)c3c(c2)OCO3)[C@@H]2COC(=O)[C@@H]2C)cc2c1OCO2 | Subgenomic replicon S52 | T1056A T1429I S2204I | Huh7.5 | luciferase |  | 50 µM | 88%
CC1(C)CC[C@@]2(C(=O)NCCCNC(=O)[C@]34CCC(C)(C)CC3C3=CCC5[C@@]6(C)CC[C@H](O)C(C)(C)C6CC[C@@]5(C)[C@]3(C)C[C@H]4O)C(C1)C1=CCC3[C@@]4(C)CC[C@H](O)C(C)(C)C4CC[C@@]3(C)[C@]1(C)C[C@H]2O |  |  | Huh7 | luciferase / entry |  | 1 µM | 44.6%
COC(=O)/C=C1\S/C(=N/N=C/c2cc([N+](=O)[O-])ccc2O)NC1=O | 1b Con1 (replicon) |  | Huh 5-2 | luciferase / luminescence |  | 4.79 µM | 64.5%
COc1cccc([C@H]2C(C(=O)/C=C/c3ccccc3)=C(O)C(=O)N2CCCC(=O)O)c1 | 1b |  | Huh7/Rep-Feo1b | luciferase / replicon |  | 50 µM | 0%
COC(=O)/C=C1\S/C(=N/N=C/c2ccc(N(C)C)cc2)NC1=O | 1b Con1 (replicon) |  | Huh 5-2 | luciferase / luminescence |  | 41.6 µM | 78.8%
Cc1ccc(-c2c(C#N)c(SCC(=O)c3ccc(O)c(O)c3)nc3c2CCCC3)o1 | 1b |  | Huh7/Rep-Feo1b | luciferase / replicon |  | 50 µM | 96.7%
CC1(C)CC[C@@]2(C(=O)NCCCCNC(=O)[C@]34CCC(C)(C)CC3C3=CCC5[C@@]6(C)CC[C@H](O)C(C)(C)C6CC[C@@]5(C)[C@]3(C)C[C@H]4O)C(C1)C1=CCC3[C@@]4(C)CC[C@H](O)C(C)(C)C4CC[C@@]3(C)[C@]1(C)C[C@H]2O |  |  | Huh7 | luciferase / entry |  | 1 µM | 46.5%
N#Cc1c(SCc2ccncc2)sc2c(=O)[nH]c(=O)[nH]c12 | GT2a |  | Huh7.5 | luciferase / reporter gene |  | 50 µM | 31%
COc1cc([C@@H]2O[C@H](c3cc(OC)c4c(c3)OCO4)[C@@H](C)[C@@H]2C)cc(OC)c1OC | Cell culture J6/JFH-1 |  | Huh7.5 |  |  | 12.5 µM | 100%
COC(=O)/C=C1\S/C(=N/N=C/c2ccc(Cl)cc2)NC1=O | 1b Con1 (replicon) |  | Huh 5-2 | luciferase / luminescence |  | 48.9 µM | 80.2%
CC1(C)CC[C@@]2(C(=O)NCc3cn(CCCCCCn4cc(CNC(=O)[C@]56CCC(C)(C)CC5C5=CCC7[C@@]8(C)CC[C@H](O)C(C)(C)C8CC[C@@]7(C)[C@]5(C)C[C@H]6O)nn4)nn3)C(C1)C1=CCC3[C@@]4(C)CC[C@H](O)C(C)(C)C4CC[C@@]3(C)[C@]1(C)C[C@H]2O |  |  | Huh7 | luciferase / entry |  | 5 µM | 76.9%
O=C(N[C@@H](C(=O)N1CCC[C@H]1c1ncc(-c2ccc(-c3ccc(-c4cnc([C@@H]5CCCN5C(=O)[C@H](NC(=O)C5CC5)c5ccccc5)s4)cc3)cc2)s1)c1ccccc1)C1CC1 | genotype 1b Con1 |  | Huh7.5 | luciferase |  | 0.0000082 µM | 90%
CC1(C)CC[C@]2(C(=O)O)CC[C@]3(C)C(=CC[C@@H]4[C@@]5(C)CC[C@H](O)C(C)(C)[C@@H]5CC[C@]43C)[C@@H]2C1 |  |  | Huh7 | luciferase / entry |  | 1 µM | 22.4%
N#Cc1c(N)nc(SCC(=O)c2ccc(O)c(O)c2)c(C#N)c1-c1ccc(O)cc1 | 1b |  | Huh7/Rep-Feo1b | luciferase / replicon |  | 50 µM | 85.8%
CC1(C)CC[C@@]2(C(=O)NCc3cn(Cc4cccc(Cn5cc(CNC(=O)[C@]67CCC(C)(C)CC6C6=CCC8[C@@]9(C)CC[C@H](O)C(C)(C)C9CC[C@@]8(C)[C@]6(C)C[C@H]7O)nn5)c4)nn3)C(C1)C1=CCC3[C@@]4(C)CC[C@H](O)C(C)(C)C4CC[C@@]3(C)[C@]1(C)C[C@H]2O |  |  | Huh7 | luciferase / entry |  | 5 µM | 74.6%
C[C@H]1[C@H]2[C@H](OC3O[C@H](CO)[C@@H](O)[C@H](O)[C@H]3O)OC=C(C(=O)O)[C@H]2C[C@@H]1O |  |  |  | entry |  | 20 µg/mL | 0%
O=C(O[C@@H]1Cc2c(O)cc(O)cc2O[C@@H]1c1ccc(O)c(O)c1)c1cc(O)c(O)c(O)c1 | 1a |  |  | luciferase |  | 50 µM | 40%
Cn1c(=O)c2c(ncn2C)n(C)c1=O | JFH-1 |  | Huh7.5 | luciferase / replicon |  | 2000 µM | 82%
COC(=O)/C=C1\S/C(=N/N=C/c2cccc(Br)c2)NC1=O | 1b Con1 (replicon) |  | Huh 5-2 | luciferase / luminescence |  | 9.6 µM | 71.8%
N#C/C(=C\c1ccc(-c2ccc(F)cc2F)o1)c1nn(CCO)c(N)c1C#N | 1b |  | Huh7/Rep-Feo1b | luciferase / replicon |  | 50 µM | 79.7%
O=C(Nc1ccc(-c2nc3ccccc3[nH]2)cc1)C1CCN(Cc2cccc(F)c2)CC1 | JFH-1 |  | Huh7 | PCR |  | 15 µM | ≥40%
CC1(C)CC[C@@]2(C(=O)NCc3cn(CC(Cn4cc(CNC(=O)[C@]56CCC(C)(C)CC5C5=CCC7[C@@]8(C)CC[C@H](O)C(C)(C)C8CC[C@@]7(C)[C@]5(C)C[C@H]6O)nn4)(Cn4cc(CNC(=O)[C@]56CCC(C)(C)CC5C5=CCC7[C@@]8(C)CC[C@H](O)C(C)(C)C8CC[C@@]7(C)[C@]5(C)C[C@H]6O)nn4)Cn4cc[n+](CNC(=O)[C@]56CCC(C)(C)CC5C5=CCC7[C@@]8(C)CC[C@H](O)C(C)(C)C8CC[C@@]7(C)[C@]5(C)C[C@H]6O)n4)nn3)C(C1)C1=CCC3[C@@]4(C)CC[C@H](O)C(C)(C)C4CC[C@@]3(C)[C@]1(C)C[C@H]2O |  |  | Huh7 | luciferase / entry |  | 5 µM | 58.4%
O=c1[nH]cnc2c1cnn2Cc1ccccc1 | GT2a |  | Huh7.5 | luciferase / reporter gene |  | 50 µM | 70%
O=C(OCC1=C[C@@H](O)[C@@H]2C=CO[C@@H](OC3O[C@H](CO)[C@@H](O)[C@H](O)[C@H]3O)[C@H]12)c1ccc(O)cc1 |  |  |  | entry |  | 20 µg/mL | 0%
CC1(C)CC[C@@]2(C(=O)NCc3cn(CCCn4cc(CNC(=O)[C@]56CCC(C)(C)CC5C5=CCC7[C@@]8(C)CC[C@H](O)C(C)(C)C8CC[C@@]7(C)[C@]5(C)C[C@H]6O)nn4)nn3)C(C1)C1=CCC3[C@@]4(C)CC[C@H](O)C(C)(C)C4CC[C@@]3(C)[C@]1(C)C[C@H]2O |  |  | Huh7 | luciferase / entry |  | 1 µM | 86.3%
COC(=O)C1=CO[C@@H](OC2O[C@H](CO)[C@@H](O)[C@H](O)[C@H]2O)[C@H]2[C@@H]1C=C[C@@]2(O)CO |  |  |  | entry |  | 20 µg/mL | 0%
Nc1nc2c(cnn2[C@H](C=O)O[C@@H](C=O)CO)c(=O)[nH]1 | GT2a |  | Huh7.5 | luciferase / reporter gene |  | 50 µM | 38%
COc1cc(/C=C/C(=O)CC(=O)/C=C/c2ccc(O)c(OC)c2)ccc1O |  |  | Huh7/Rep-Feo cells | luciferase / reporter gene |  | 15 µM | 40–60%
COC(=O)C1=CO[C@@H](O)[C@@H]2[C@@H](C)[C@@H](O)C[C@H]12 |  |  |  | entry |  | 20 µg/mL | 41.4%
CC1(C)CC[C@@]2(C(=O)NCc3cn(CC(CO)(Cn4cc(CNC(=O)[C@]56CCC(C)(C)CC5C5=CCC7[C@@]8(C)CC[C@H](O)C(C)(C)C8CC[C@@]7(C)[C@]5(C)C[C@H]6O)nn4)Cn4cc[n+](CNC(=O)[C@]56CCC(C)(C)CC5C5=CCC7[C@@]8(C)CC[C@H](O)C(C)(C)C8CC[C@@]7(C)[C@]5(C)C[C@H]6O)n4)nn3)C(C1)C1=CCC3[C@@]4(C)CC[C@H](O)C(C)(C)C4CC[C@@]3(C)[C@]1(C)C[C@H]2O |  |  | Huh7 | luciferase / entry |  | 5 µM | 52.7%
CCC(NC(=O)[C@@H]1[C@H]2CC[C@@H](F)[C@H]2CN1C(=O)[C@@H](NC(=O)[C@@H](NC(=O)c1cnccn1)C(C)C)C(C)C)C(=O)C(=O)NC1CC1 |  |  |  |  |  | 25 µM | 84%
O=C1N/C(=N\c2nnc(-c3ccc(Cl)cc3)s2)S/C1=C\c1ccc(Cl)cc1Cl |  |  | Huh7.5-FGR-JC1-Rluc2A | MTS |  | 100 µM | 0%
COc1cccc(-c2ccccc2NC(=O)C2CCN(Cc3cccc4ccccc34)CC2)c1 | JFH-1 |  | Huh7 | PCR |  | 15 µM | ≥40%
CC1=CC2NC(/C(C#N)=C/c3ccc(O)c(O)c3)=NC2C=C1 | 1b |  | Huh7/Rep-Feo1b | luciferase / replicon |  | 50 µM | 97%

The last 4 rows once more:

structure	strain or isolate	mutations	cell line	read by	conditions	tested at	result
CCC(NC(=O)[C@@H]1[C@H]2CC[C@@H](F)[C@H]2CN1C(=O)[C@@H](NC(=O)[C@@H](NC(=O)c1cnccn1)C(C)C)C(C)C)C(=O)C(=O)NC1CC1						25 µM	84%
O=C1N/C(=N\c2nnc(-c3ccc(Cl)cc3)s2)S/C1=C\c1ccc(Cl)cc1Cl			Huh7.5-FGR-JC1-Rluc2A	MTS		100 µM	0%
COc1cccc(-c2ccccc2NC(=O)C2CCN(Cc3cccc4ccccc34)CC2)c1	JFH-1		Huh7	PCR		15 µM	≥40%
CC1=CC2NC(/C(C#N)=C/c3ccc(O)c(O)c3)=NC2C=C1	1b		Huh7/Rep-Feo1b	luciferase / replicon		50 µM	97%